These are literature values, as cited in article PMC9774897 (Antibiotics, 2022).

The data set has as its system M. tuberculosis. The note with it: REMA; ref [23]; cited from earlier work. The text has this: Table 6 The general characteristics and the previously reported MIC of each antimicrobial peptide used in this study. | column: MIC (µg/mL)

As for `CC[C@H](C)[C@H](NC(=O)CN)C(=O)NCC(=O)N[C@@H](C)C(=O)N[C@H](C(=O)N[C@@H](CC(C)C)C(=O)N[C@@H](CCCCN)C(=O)N[C@H](C(=O)N[C@@H](CC(C)C)C(=O)N[C@H](C(=O)N[C@H](C(=O)NCC(=O)N[C@@H](CC(C)C)C(=O)N1CCC[C@H]1C(=O)N[C@@H](C)C(=O)N[C@@H](CC(C)C)C(=O)N[C@H](C(=O)N[C@@H](CO)C(=O)N[C@@H](Cc1c[nH]c2ccccc12)C(=O)N[C@H](C(=O)N[C@@H](CCCCN)C(=O)N[C@@H](CCCNC(=N)N)C(=O)N[C@@H](CCCCN)C(=O)N[C@@H](CCCNC(=N)N)C(=O)N[C@@H](CCC(N)=O)C(=O)N[C@@H](CCC(N)=O)C(N)=O)[C@@H](C)CC)[C@@H](C)CC)[C@@H](C)O)[C@@H](C)O)C(C)C)C(C)C` [AM-mel], the MIC – broadly, the lowest concentration found to suppress growth – was 32 to 64 µg/mL.
